Compound potency records, mixed from different reports. Data source: NIAID ChemDB in PubChem.

All rows: tests in culture

ECn is the concentration giving n% inhibition of infection, replication or growth. Zone: diameter of growth inhibition. A number after MIC or MFC names an inhibition level or a share of isolates. Blank or dashed fields: not listed here. a–b is a range or a potency band. Rows are shuffled and stem from different studies.

smiles | strain | endpoint | changes | dose | species | method | setting | value
COc1ccccc1O |  | MIC |  |  | Candida dubliniensis | broth dilution |  | 10 µg/mL
COc1ccc2c(Cc3ccc(C(C)C)cc3)c3[n+](cc2c1OCCCO)CCc1cc2c(cc1-3)OCO2 | ATCC 42720 | MIC |  |  | Candida lusitaniae | broth dilution |  | 4 µg/mL
CC(C)=CCOc1ccc(C2CC(=O)c3c(O)cc(O)cc3O2)cc1 | Candida inconspicua | zone |  | 100 µg/mL | Candida spp. | agar diffusion / agar |  | 0 mm
O=[N+]([O-])c1cc(C[Se]c2nnnn2C2CCCCC2)cc([N+](=O)[O-])c1 | 156 | EC80 |  |  | Candida tropicalis | broth dilution | 48 h | >500 µM
c1ccc([Se][Se]c2ccccc2)cc1 | ATCC 66035 | MIC |  |  | Candida lusitaniae | broth dilution |  | 4 µg/mL
OC(Cn1cncn1)(Cn1cncn1)c1ccc(F)cc1F | TW 00313 | MIC |  |  | Candida albicans | broth dilution |  | 128 µg/mL
C/C(=N\NC(=O)c1ccccc1)c1ccc(-n2ccnc2)cc1 | ATCC 2001 | MIC50 |  |  | Candida glabrata | broth dilution |  | >821.4 µM
COc1ccc2c(Cc3ccc(C(C)C)cc3)c3[n+](cc2c1OC(C)(C)C)CCc1cc2c(cc1-3)OCO2 | ATCC 42720 | MIC |  |  | Candida lusitaniae | broth dilution |  | 8 µg/mL
CO[C@H]1C[C@H](O[C@H]2CC[C@@]3(C)C(=CC[C@H]4C5=CC(=O)[C@@H]6[C@@H](C)OC(=O)[C@]56CC[C@@H]43)C2)O[C@H](C)[C@H]1O[C@H]1C[C@H](OC)[C@H](O[C@H]2C[C@H](OC)[C@H](O[C@@H]3C[C@@H](OC)[C@@H](O)[C@H](C)O3)[C@@H](C)O2)[C@@H](C)O1 |  | EC50 |  |  | Candida guilliermondii | broth dilution / turbidity |  | 100 µg/mL
COc1ccc(C=O)cc1 | 1131 | MIC90 |  |  | Candida albicans | agar diffusion / agar |  | 300–500 µM
O=C(O)c1ccccc1O | PYCC 2705 | EC50 |  |  | Candida lusitaniae | broth dilution / turbidity |  | 0.1 µM
NC(=S)N/N=C/c1cnc[nH]1 | ATCC 2001 | MIC50 |  |  | Candida glabrata | broth dilution |  | >1480 µM
O=C(Cc1c[nH]c2ccccc12)NCCc1ccc2c(c1)OCO2 | Clinical isolate | MIC80 | Fluconazole-resistant |  | Candida albicans | broth dilution |  | >64 µg/mL
O=[N+]([O-])c1cc(CSc2cccc[n+]2[O-])cc([N+](=O)[O-])c1 | 156 | EC80 |  |  | Candida tropicalis | broth dilution | 24 h | >500 µM
Cc1ccccc1O |  | MIC |  |  | Candida dubliniensis | broth dilution |  | 400 µg/mL
O=C1C(c2ccc(Oc3ccccc3)cc2)=[N+]([O-])c2ccccc21 |  | MFC |  |  | Candida colliculosa |  |  | >125 µg/mL
CCOC(=O)C1C(c2ccccc2)CC(c2ccc(OC)cc2)=CC12NCCN2 |  | MIC |  |  | Candida neoformans |  |  | 25 µg/mL
Nc1[nH]c(=O)ncc1F | 19 isolates | MIC50 |  |  | Candida tropicalis |  |  | 0.12 µg/mL
C[C@@H](c1ncncc1F)[C@](O)(Cn1cncn1)c1ccc(F)cc1F | Clinical isolates | MIC |  |  | Candida guilliermondii | broth dilution |  | 0.06 µg/mL
CCOC(=O)C1C(c2ccc(Cl)cc2)CC(c2ccccc2)=CC12NCCN2 | Strains 6 and 6 | MIC |  |  | Candida spp. |  |  | 200 µg/mL
C[C@@H]1[C@H](O)[C@@H](C)/C=C/C=C/C=C/C=C/C=C/C=C/C=C/[C@H](OC2O[C@@H](C)[C@H](O)[C@@H](N)[C@H]2O)C[C@@H]2OC(O)(C[C@@H](O)C[C@@H](O)[C@H](O)CC[C@@H](O)C[C@@H](O)CC(=O)C[C@H]1C)C[C@H](O)[C@H]2C(=O)O | MTCC 1962 | MIC |  |  | Candida spp. |  |  | 300 µg/mL
C/C(=N\NC(=S)Nc1ccccc1)c1ccc(-n2ccnc2)cc1 | ATCC 2001 | MIC50 |  |  | Candida glabrata | broth dilution |  | >745 µM
CC(=O)N1CCN(c2ccc(OC[C@H]3CO[C@](Cn4ccnc4)(c4ccc(Cl)cc4Cl)O3)cc2)CC1 | 19 isolates | MIC50 |  |  | Candida tropicalis |  |  | 1 µg/mL
C[C@@H]([C@H]1CC[C@H](C)C(=O)C1)[C@H]1CC[C@]2(C)C3=C(CC[C@@]12C)[C@]1(C)CC[C@H](O)C(C)(C)[C@H]1CC3 | MTCC 183 | zone |  | 2 µg/disc | Candida albicans | agar diffusion / agar |  | 19 mm
O=[N+]([O-])c1cc(C[Se]c2nnnn2Cc2ccccc2)cc([N+](=O)[O-])c1 | E28 | EC80 |  |  | Candida krusei | broth dilution | 48 h | >500 µM
COc1ccc2c(Cc3cccc(F)c3)c3[n+](cc2c1OC)CCc1cc2c(cc1-3)OCO2.[Br-] | Clinical isolate | MIC80 | Fluconazole-resistant |  | Candida albicans | broth dilution |  | >64 µg/mL
C[C@H]1[C@H](O)[C@@H](C)/C=C/C=C/C=C/C=C/C=C/C=C/C=C/[C@H](O[C@@H]2O[C@H](C)[C@@H](O)[C@H](N)[C@@H]2O)C[C@@H]2O[C@](O)(C[C@@H](O)C[C@@H](O)CC[C@H](O)[C@@H](O)C[C@@H](O)CC(=O)O[C@H]1C)C[C@H](O)[C@H]2C(=O)O | CBS 7987 | MIC |  |  | Candida dubliniensis | broth dilution |  | 0.002 µg/mL
CO[C@H]1C[C@H](O[C@H]2CC[C@@]3(C)C(=CC[C@@H]4[C@@H]3CC[C@]35C(=O)O[C@H](C)[C@H]3C(=O)C[C@]45O)C2)O[C@H](C)[C@H]1O[C@H]1C[C@H](OC)[C@H](O[C@@H]2C[C@@H](OC)[C@@H](O)[C@H](C)O2)[C@@H](C)O1 |  | EC50 |  |  | Candida guilliermondii | broth dilution / turbidity |  | 50 µg/mL
CN(C/C=C/C#CC(C)(C)C)Cc1cccc2ccccc12 |  | MIC80 |  |  | Candida glabrata | broth dilution | clinical isolate | 3.44 µM
C[C@@H](c1nc(-c2ccc(C#N)cc2)cs1)[C@](O)(Cn1cnnc1)c1ccc(F)cc1F | Isogenic isolate 5 MDR1 (25X) | MIC |  |  | Candida albicans |  |  | ≤0.008 µg/mL
CCC(C)n1ncn(-c2ccc(N3CCN(c4ccc(OC[C@H]5CO[C@](Cn6cncn6)(c6ccc(Cl)cc6Cl)O5)cc4)CC3)cc2)c1=O | 52 clinical isolates | MIC50 |  |  | Candida parapsilosis | broth dilution |  | 0.062 µg/mL
C=C(c1ccccc1OCc1cccc(Cl)c1)n1ccnc1 | 19 isolates | MIC50 |  |  | Candida tropicalis |  |  | 8 µg/mL
CC(=O)N1CCN(c2ccc(OC[C@H]3CO[C@](Cn4ccnc4)(c4ccc(Cl)cc4Cl)O3)cc2)CC1 | Clinical isolates | MIC |  |  | Candida spp. |  |  | 32 µg/mL
O=C(NCCc1ccc2c(c1)OCO2)Nc1ccc(Cl)cc1 | Clinical isolate | MIC80 | Fluconazole-resistant |  | Candida albicans | broth dilution |  | >64 µg/mL
O=[N+]([O-])c1cc(CSc2nnnn2C2CCCCC2)cc([N+](=O)[O-])c1 | 156 | EC80 |  |  | Candida tropicalis | broth dilution | 48 h | >500 µM
CC(C)CCOc1ccc(C2CC(=O)c3c(O)cc(O)cc3O2)cc1 | Candida inconspicua | zone |  | 100 µg/mL | Candida spp. | agar diffusion / agar |  | 0 mm
COc1cc(O)c2c(c1)OC(c1ccc(O)cc1)CC2=O | ATCC 7978 | MIC |  |  | Candida dubliniensis | broth dilution |  | 630 µg/mL
Clc1ccc(COC(Cn2ccnc2)c2ccc(Cl)cc2Cl)c(Cl)c1 | 19 isolates | MIC50 |  |  | Candida tropicalis |  |  | 4 µg/mL
CCCCCCCCOc1ccc(-c2ccc(C(=O)NC3CC(NCCN)CNC(=O)[C@@H]4[C@@H](O)[C@@H](C)CN4C(=O)[C@@H](CO)NC(=O)[C@H]([C@H](O)Cc4ccccc4)NC(=O)[C@@H]4C[C@@H](O)CN4C(=O)[C@H]([C@@H](C)O)NC3=O)cc2)cc1 | NEM_7104301 | MIC |  |  | Candida lusitaniae | resazurin |  | 1 µg/mL
CCCC1=NOC(CCCCCCCCC(=O)OC)C1 |  | MFC |  |  | Candida dubliniensis | agar |  | 256 µg/mL
CC(C)OC(=O)c1ccc(C[N+]2=C(c3ccco3)c3cc4c(cc3CC2)OCO4)cc1.[Br-] | Clinical isolate | MIC80 | Fluconazole-resistant |  | Candida albicans | broth dilution |  | >64 µg/mL
Cc1ccc(Oc2c(C3C(C#N)=C(N)OC4=C3C(=O)CCC4)c(C)nn2-c2ccc(C)cc2)cc1 | MTCC 227 | MIC |  |  | Candida spp. |  |  | 500 µg/mL
CCO[C@@H]1C[C@@H]([C@H](C)[C@H]2CC[C@]3(C)C4=C(CC[C@@]23C)[C@]2(C)CC[C@H](O)C(C)(C)[C@H]2CC4)CC[C@@H]1C | MTCC 183 | zone |  | 5 µg/disc | Candida albicans | agar diffusion / agar |  | 23 mm
COc1ccc2c(Cc3ccc(C(C)C)cc3)c3[n+](cc2c1OCc1ccccc1)CCc1cc2c(cc1-3)OCO2 | ATCC 42720 | MIC |  |  | Candida lusitaniae | broth dilution |  | 8 µg/mL
C[C@@H]1[C@H](O)[C@@H](C)/C=C/C=C/CC/C=C/C=C/C=C/C=C/C(O[C@H]2O[C@H](C)[C@@H](O)[C@H](N)[C@@H]2O)CC2O[C@](O)(CC(O)C(O)CCC(O)CC(O)CC(O)CC(=O)O[C@H]1C)CC(O)C2C(=O)O | Clinical isolates | MIC |  |  | Candida guilliermondii | broth dilution |  | 2 µg/mL
C[C@H]1[C@H](O)[C@@H](C)/C=C/C=C/C=C/C=C/C=C/C=C/C=C/[C@H](O[C@@H]2O[C@H](C)[C@@H](O)[C@H](N)[C@@H]2O)C[C@@H]2O[C@](O)(C[C@@H](O)C[C@@H](O)CC[C@H](O)[C@@H](O)C[C@@H](O)CC(=O)O[C@H]1C)C[C@H](O)[C@H]2C(=O)O | 77 isolates | MIC50 |  |  | Candida glabrata |  |  | 1 µg/mL
Cc1ccc(O)cc1 |  | MIC |  |  | Candida dubliniensis | broth dilution |  | 880 µg/mL
COc1cc(C[C@H](C)[C@H](C)Cc2ccc(O)c(O)c2)ccc1O | CCC 126-2000 | MIC100 |  |  | Candida albicans | broth dilution |  | 62.5 µg/mL
Clc1ccc(COC(Cn2ccnc2)c2ccc(Cl)cc2Cl)c(Cl)c1 | ATCC 40277 | MFC100 |  |  | Candida albicans | broth dilution |  | 32 µg/mL
CCOC(=O)C1C(c2ccc(C)cc2)CC(c2ccccc2)=CC12NCCN2 | Strains 6 and 6 | MIC |  |  | Candida spp. |  |  | 25 µg/mL
CO[C@H]1C[C@H](O[C@H]2CC[C@@]3(C)C(=CC[C@@H]4[C@@H]3CC[C@]35C(=O)O[C@H](C)[C@H]3C(=O)C[C@]45O)C2)O[C@H](C)[C@H]1O[C@H]1C[C@H](OC)[C@H](O[C@@H]2C[C@@H](OC)[C@@H](O[C@@H]3O[C@H](CO)[C@@H](O)[C@H](O)[C@H]3O)[C@H](C)O2)[C@@H](C)O1 |  | EC50 |  |  | Candida guilliermondii | broth dilution / turbidity |  | 25 µg/mL
CC(=O)N/N=C/c1cnc[nH]1 | ATCC 2001 | MIC50 |  |  | Candida glabrata | broth dilution |  | >1643 µM
COc1cc2occ(-c3ccc(O)cc3)c(=O)c2c(OC)c1CC=C(C)C | Clinical isolate | MIC |  |  | Candida guilliermondii | broth dilution |  | 12.5 µg/mL
O=C(O)c1ccccc1 | ATCC 22019 | EC50 |  |  | Candida parapsilosis |  |  | 0.09 µM
COC(=O)/C=C1/NN=C(c2ccccn2)N(c2ccccn2)C1=O | Clinical isolates (7 strains) | MIC50 |  |  | Candida spp. | agar diffusion |  | 512 µg/mL
S=C(N/N=C/c1ccc(-n2ccnc2)cc1)Nc1ccccc1 | ATCC 2001 | MIC50 |  |  | Candida glabrata | broth dilution |  | >778 µM
Oc1cc(O)c2c(c1)OC(c1ccc(O)c(O)c1)[C@@H](O)C2 | Clinical isolate 4 | MIC50 |  |  | Candida tropicalis | broth dilution |  | >128 µg/mL
O=Cc1cc(O)ccc1O | PYCC 2545 | EC50 |  |  | Candida parapsilosis | broth dilution / turbidity |  | 0.68 µM
CCC(C)n1ncn(-c2ccc(N3CCN(c4ccc(OC[C@H]5CO[C@](Cn6cncn6)(c6ccc(Cl)cc6Cl)O5)cc4)CC3)cc2)c1=O | 17 isolates | MIC90 |  |  | Candida krusei |  |  | 2 µg/mL
O=C(O)c1cccc(-n2nnnc2SCc2cc([N+](=O)[O-])cc([N+](=O)[O-])c2)c1 | 20/I | EC80 |  |  | Candida glabrata | broth dilution | 48 h | >500 µM
CO[C@H]1C[C@H](O[C@H]2CC[C@@]3(C)C(=CC[C@H]4C5=CC(=O)[C@@H]6[C@@H](C)OC(=O)[C@]56CC[C@@H]43)C2)O[C@H](C)[C@H]1O[C@H]1C[C@H](OC)[C@H](O[C@@H]2C[C@@H](OC)[C@@H](O[C@@H]3O[C@H](CO[C@@H]4O[C@H](CO)[C@@H](O)[C@H](O)[C@H]4O)[C@@H](O)[C@H](O)[C@H]3O)[C@H](C)O2)[C@@H](C)O1 |  | EC50 |  |  | Candida guilliermondii | broth dilution / turbidity |  | >100 µg/mL
Oc1ccccc1 |  | MIC |  |  | Candida dubliniensis | broth dilution |  | >45260 µg/mL

3 of the rows above, restated:

smiles,strain,endpoint,changes,dose,species,method,setting,value
O=Cc1cc(O)ccc1O,PYCC 2545,EC50,,,Candida parapsilosis,broth dilution / turbidity,,0.68 µM
O=C(O)c1ccccc1,ATCC 22019,EC50,,,Candida parapsilosis,,,0.09 µM
CO[C@H]1C[C@H](O[C@H]2CC[C@@]3(C)C(=CC[C@@H]4[C@@H]3CC[C@]35C(=O)O[C@H](C)[C@H]3C(=O)C[C@]45O)C2)O[C@H](C)[C@H]1O[C@H]1C[C@H](OC)[C@H](O[C@@H]2C[C@@H](OC)[C@@H](O)[C@H](C)O2)[C@@H](C)O1,,EC50,,,Candida guilliermondii,broth dilution / turbidity,,50 µg/mL